Data from publication PMC4805248.
Substitutions are numbered along the chain they refer to. Where a protein sequence is shown, tags need not be part of it.

What was measured:
[1] = biological target: T1, PgMntR C108E (Porphyromonas gingivalis W50) (UniProt Q7MVL0); assay: EMSA; details: 800 nM protein, EMSA: 1 nM biotinylated DNA, 700-1000 nM protein, 90 mM Bis-Tris borate pH 6.8 (1 mM TCEP, 5 mM DTT) or 10 mM Tris-Cl pH 7.5 or Tris-acetate pH 6.8, 50 mM KCl, recombinant protein, residues 1-310, protein details: His-tag cleaved, N-terminal GPG left, label: 5' biotin on both primers, probe letters rebuilt from the primers and the genome
T1 sequence (looked up): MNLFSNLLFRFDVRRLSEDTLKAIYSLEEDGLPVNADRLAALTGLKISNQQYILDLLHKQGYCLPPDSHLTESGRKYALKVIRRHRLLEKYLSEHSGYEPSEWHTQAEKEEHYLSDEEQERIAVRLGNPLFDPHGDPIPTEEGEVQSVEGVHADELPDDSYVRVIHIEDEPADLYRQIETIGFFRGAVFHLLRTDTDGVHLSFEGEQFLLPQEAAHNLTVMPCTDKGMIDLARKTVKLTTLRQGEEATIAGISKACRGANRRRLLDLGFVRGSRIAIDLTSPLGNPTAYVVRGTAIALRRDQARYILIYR

[2] = biological target: T2, PgMntR D19M (Porphyromonas gingivalis W50) (UniProt Q7MVL0); assay: EMSA; details: 800 nM protein, EMSA: 1 nM biotinylated DNA, 700-1000 nM protein, 90 mM Bis-Tris borate pH 6.8 (1 mM TCEP, 5 mM DTT) or 10 mM Tris-Cl pH 7.5 or Tris-acetate pH 6.8, 50 mM KCl, recombinant protein, residues 1-310, protein details: His-tag cleaved, N-terminal GPG left, label: 5' biotin on both primers, probe letters rebuilt from the primers and the genome
T2 sequence (looked up): T1 sequence (looked up) with D19M, E108C

Measured: binding result

GCTTCTATAACTTCTATTATTACCGAAGTGTTCGGTCTGTTGGCCTGTGGCACAACGTTTTCAGTATGACAAAGGTGCTTATTTTATCGAAGAATCCGTCAAACTGCAGGCTCTCCTGTGCTATTTTACCTGCATTGAGGTATCCGGAGGCGGAGTTGCTTCTACAAGATCGTTTCCACTTTCTTCCCTGACTATTCCGGTCATTGACAGACTGAAAAATACGTACCAAAAAAGTTTTCAACAACGAAGATGAGTTTGGAATGATTCCAAATAAGCACCTGAAAGGAAGACGATTTCGAAGTCAAAAAGGCAAGAAAAGGAAGTTTTTCAGGTAGAAACATGACTTTTGGAAAGAAGATAACGATTTATATACAAATCATTTACG (double strand) [P1 (promoter region upstream of pgmntR/FB2 operon)]
binds: [1]; Mn2+ | [1]; no metal | [2]; Mn2+ | [2]; no metal
